# Measurements reported in patent publication US20070249501A1 (priority 2004, published 2007).
# Key:
# [1] = tested on: root-knot nematode Meloidogyne javanica; settings: scale 0 (clean roots) to 4 (100% coverage of galls); three weeks after planting
# [2] = tested on: Fusarium oxysporum f. sp. radicis-lycopersici (FORL); settings: applied to soil at 30 ppm; 7 days at 25° C.
# Verticillium dahliae = assay: Viability of soil-borne fungi in treated soil: Verticillium dahliae; settings: 7 days
smiles,measurement,setting,value
O=[N+]([O-])C(Br)(Br)Br,galling index of tomato plant roots,[1],zero
same,density of FORL in soil,[2],< 10 cfu/g
same,Verticillium dahliae density relative to the untreated check,Verticillium dahliae; applied to soil at 30 ppm,under 1 % of the untreated check
same,"LD50 (concentration reducing density in soil by half), Verticillium dahliae","Verticillium dahliae; dose response curve, FIG. 4",about 12 ppm
